Compound potency records, mixed from different reports. Data source: NIAID ChemDB in PubChem.

All rows: host cell toxicity; measure: CC50

CCn: concentration that lowers growth or viability of the cells by n%.

SMILES	cells	read by	value
COc1ccnc2[nH]cc(C(=O)C(=O)N3CCN(C(=O)c4ccccc4)C[C@H]3C)c12	Macrophage	-	>225 µM
Cc1ccc2[nH]c(O)c(N=NC(=S)Nc3ccccc3)c2c1	hRD	-	>25 µM
CC(C)(CCl)C(=O)Nc1ccc(NS(=O)(=O)c2cccc3ccccc23)cc1	Human embryonic lung fibroblasts	-	33.3 µM
O=C(NCCc1ccc2c(n1)NCCC2)NCc1ccccc1N1CCOCC1	PBMC	-	50 µM
CC(C)Sc1nc(N)nc2c1ncn2/C=C1/C[C@@H]1CO	Akata	ATP	>20 µM
COc1ccc(NC(=O)NCCc2ccc3c(n2)NCCC3)c(C)c1	PBMC	-	13 µM
CN(C)c1cccc2c(S(=O)(=O)Nc3ccc(NC(=O)C(C)(C)C)cc3)cccc12	Human embryonic lung fibroblasts	-	65.5 µM
CO/C=C(/C(=O)OC)[C@H](C)[C@H](/C=C/c1ccccc1)OC(C)=O	HL-60	-	20 µg/mL
CC(C)(C(=O)O)C(=O)Nc1ccc(NS(=O)(=O)c2cccc3c(N)cccc23)cc1	Human embryonic lung fibroblasts	-	>250 µM
O=C(NCCN1CCc2ccccc2C1)Nc1ccc(Cl)c(Cl)c1	PBMC	-	4.5 µM
O=C1N(CCC(CCOc2ccc(-c3ccc(Cl)cc3)cc2)C(F)(F)F)CCN1c1ccncc1	RD	-	>12.5 µM
CC(C)(C)COc1nc(N)nc2c1ncn2/C=C1/C[C@@H]1CO	Akata	ATP	>20 µM
CCOC(=O)c1c(O)c2cc(Oc3ccc(N)cc3)cnc2n(O)c1=O	HeLa	-	<100 µM
O=C(NCCc1cccc(-n2cccn2)n1)Nc1cccc(F)c1	PBMC	-	30 µM
Cn1c(O)c(N=NC(=S)Nc2ccccc2)c2ccccc21	hRD	-	>25 µM
CC(=O)c1c(O)c2cccnc2n(O)c1=O	HeLa	-	<100 µM
CC(C)Oc1ccc(S(=O)(=O)NCCc2ccc3c(n2)NCCC3)cc1	PBMC	-	50 µM
CCc1nc(-c2ccc(OCCC(C)CCN3CCN(c4ccncc4)C3=O)cc2)no1	RD	-	>25 µM
CCc1nc(CCC(=O)O)cnc1CCC(=O)O	A-594	MTT	>40 µg/mL
CCCCCCSc1nc(N)nc2c1ncn2/C=C1/C[C@@H]1CO	Akata	ATP	>20 µM
Clc1ccc2c(NCCCCNc3nc(Nc4ccccc4)nc(N4CCOCC4)n3)ccnc2c1	LLC-Pk11	-	9.9 µM
O=c1cc(Nc2ccccc2N2CCCCC2)c2cccnc2n1O	HeLa	-	<100 µM
COc1ccc(Cc2cc(C3CCN(Cc4ccc5c(c4)OCO5)CC3)nc(N)n2)cc1	Jurkat cells (PMA-stimulated)	-	>5 µM
O=C1N(Cc2cccc(COc3ccc(-c4ccc(Cl)cc4)cc3)n2)CCN1c1ccncc1	RD	-	>25 µM
O=c1cc(Nc2ccccc2-c2ccccc2)c2cccnc2n1O	HeLa	-	<100 µM
COc1ccc(Cc2cc(C3CCN(C(=O)c4ccc5c(c4)OCO5)CC3)nc(N)n2)cc1OC	Jurkat cells (PMA-stimulated)	-	0.6 µM
C/C(=N\NC(=O)c1ccccc1)c1cccc(/C(C)=N/NC(=O)c2ccccc2)n1	HL-60	MTT	0.98 µM
CC(CCOc1ccc(-c2nnn(C)n2)cc1)CCN1CCN(c2ccncc2)C1=O	RD	-	>25 µM
Nc1nc(SC2CCCC2)c2ncn(/C=C3/C[C@@H]3CO)c2n1	Akata	ATP	>20 µM
CCCc1cc(=O)oc2cc(O)cc(O)c12	CV-1	neutral red	>100 µg/mL
CN(C(=O)c1c(O)c2cccnc2n(O)c1=O)C1CCN(C(=O)OC(C)(C)C)CC1	HeLa	-	<100 µM
COc1ccccc1NC(=S)N=Nc1c(O)[nH]c2ccccc12	hRD	-	>25 µM
Cc1cc2c(O[C@H]3O[C@H](CO)[C@@H](O)[C@H]3O)ccc(O)c2c(=O)o1	HL-60	MTT	>40 µg/mL
CC(C)c1ccccc1NC(=O)NCC1CCc2ccccc2N1	PBMC	-	50 µM
CC1(C)C2CC=C3C(CC[C@@]4(C)C5C[C@](C)(C(=O)O)CC[C@]5(C)CC[C@]34C)[C@@]2(C)CC[C@H]1O	A2780	-	20 µM
CCCc1cc(=O)oc2c3c(c4c(c12)OC(C)(C)[C@H](O)[C@H]4O)O[C@H](C)[C@@H](C)[C@@H]3O	CV-1	neutral red	5 µg/mL
CC(C)(CCCOc1ccc(-c2ccc(Cl)cc2)cc1)CN1CCN(c2ccncc2)C1=O	RD	-	20 µM
Nc1nc(OCc2ccccc2)c2ncn(/C=C3/C[C@@H]3CO)c2n1	Akata	ATP	>20 µM
Cc1cc(COc2ccc(-c3ccc(Cl)cc3)cc2)cc(CN2CCN(c3ccncc3)C2=O)c1	RD	-	>25 µM
C[C@H](Nc1cc(=O)n(O)c2ncccc12)c1ccccc1	HeLa	-	<100 µM
Nc1nc2c(ncn2COCCO)c(=O)[nH]1	HET	-	1360 µM
Nc1ccc(-c2ccc3c(c2)CN(c2cc(=O)n(O)c4ncccc24)CC3)cc1	HeLa	-	<100 µM
O=C(NCCc1cccc(-n2ccnc2)n1)NCc1ccc(Cl)c(Cl)c1	PBMC	-	6.1 µM
CCCc1cc(=O)oc2cc(OCC(C)(C)C(=O)OC)c3c(c12)OC(C)(C)C=C3	CV-1	-	20 µg/mL
COc1ccc2c(O[C@@H]3C[C@H]4C(=O)N[C@]5(C(=O)NS(=O)(=O)C6CC6)C[C@H]5/C=C\CCCCN(C)C(=O)[C@@H]4C3)cc(-c3nc(C(C)C)cs3)nc2c1C	Huh7-Luc	-	>42 µM
CC(C)(CCOc1ccc(-c2ccc(Cl)cc2)cc1)CCN1CCN(c2ccncc2)C1=O	RD	-	>25 µM
COc1ccc(S(=O)(=O)NCCc2ccc3c(n2)NCCC3)cc1OC	PBMC	-	50 µM
COc1ccc(Cc2cc(C3CCN(C(=O)c4cccc5c4OCO5)CC3)nc(N)n2)cc1	Jurkat cells (PMA-stimulated)	-	>5 µM
CC(CCCCOc1ccc(-c2ccc(Cl)cc2)cc1)N1CCN(c2ccncc2)C1=O	RD	-	12.5 µM
O=c1cc(C2=Cc3ccccc3CC2)c2cccnc2n1O	HeLa	-	<100 µM
COc1ccc(Cc2cc(C3CCN(C(=O)c4ccc(OC)c(OC)c4)CC3)nc(N)n2)cc1	Jurkat cells (PMA-stimulated)	-	>5 µM
CCc1ccc(Nc2nc(NCCCCNc3ccnc4cc(Cl)ccc34)nc(N3CCOCC3)n2)cc1	LLC-Pk11	-	24.3 µM
CC(C)(CO)C(=O)Nc1ccc(NS(=O)(=O)c2cccc3ccccc23)cc1	Human embryonic lung fibroblasts	-	125 µM
CO/C=C(/C(=O)OC)[C@H](C)C(=O)/C=C/c1ccccc1	HL-60	-	10 µg/mL
COc1ccc(Cc2cc(C3CCN(C(=O)Cc4ccc(OC)c(OC)c4)CC3)nc(N)n2)cc1	Jurkat cells (PMA-stimulated)	-	>5 µM

A second listing of 7 rows from above:

{"SMILES": "O=C(NCCc1ccc2c(n1)NCCC2)NCc1ccccc1N1CCOCC1", "cells": "PBMC", "value": "50 µM"}
{"SMILES": "COc1ccc(S(=O)(=O)NCCc2ccc3c(n2)NCCC3)cc1OC", "cells": "PBMC", "value": "50 µM"}
{"SMILES": "C/C(=N\\NC(=O)c1ccccc1)c1cccc(/C(C)=N/NC(=O)c2ccccc2)n1", "cells": "HL-60", "read by": "MTT", "value": "0.98 µM"}
{"SMILES": "CC(C)(C(=O)O)C(=O)Nc1ccc(NS(=O)(=O)c2cccc3c(N)cccc23)cc1", "cells": "Human embryonic lung fibroblasts", "value": ">250 µM"}
{"SMILES": "CN(C(=O)c1c(O)c2cccnc2n(O)c1=O)C1CCN(C(=O)OC(C)(C)C)CC1", "cells": "HeLa", "value": "<100 µM"}
{"SMILES": "COc1ccc(Cc2cc(C3CCN(Cc4ccc5c(c4)OCO5)CC3)nc(N)n2)cc1", "cells": "Jurkat cells (PMA-stimulated)", "value": ">5 µM"}
{"SMILES": "Cc1cc2c(O[C@H]3O[C@H](CO)[C@@H](O)[C@H]3O)ccc(O)c2c(=O)o1", "cells": "HL-60", "read by": "MTT", "value": ">40 µg/mL"}

Conditions beyond the fields shown may differ between rows. Blank or dashed fields: not listed here.